Library screen at single concentrations

Measurements from “University of Dundee, Small-Polar-MMV Screening Library” (2021), ChEMBL document CHEMBL3988442.

Each number is a percent effect as filed.
The controls that fix the scale are not given in the record; negative values are as filed.
The entries come from a sample that favours strong results.
Two or more numbers in one place are separate tests of the same structure; such repeats can differ widely.

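Phenotypic screen: M. tuberculosis growth, glucose 7H9 medium, 3 days; the read-out is not stated. Compounds at 50 µM. The record gives no direction; compounds that gave an IC50 in retests scored well above the rest, so higher reads as more growth inhibition. About 69,000 compounds were tested under these conditions; 1.1% (about 760) showed 50% or more at least once.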

SMILES,percent effect
Cc1ccc(NC2CCN(C(=O)Cc3cccc(F)c3)CC2)nn1,23.05
CSc1ccc(C(CNC(C)=O)N2CCc3sccc3C2)cc1 (centres undefined),26.47
COC(=O)CSCc1noc(-c2ccc(C)cc2)n1,53.81 & 67.49
CCN(C(=O)CN1CCCC1c1ccc(F)cc1)c1ccccc1C (centres undefined),41.36
COCCn1ccc2c(NC(=O)c3n[nH]c4c3CCCC4)cccc21,46.96
Cc1nc(CNC(=O)NC(C)c2ccc3c(c2)OCCO3)cs1 (centres undefined),-20.48
c1ccc(Cc2cncc(C3CCCN3C3CCOCC3)n2)cc1 (centres undefined),-20.18
CN(C)c1cccc(C2CCN(c3ncccn3)CC2)n1,22.97
Cc1nc(CN2CCCC(CCc3cccc(C(F)(F)F)c3)C2)co1 (centres undefined),50.41
CCOc1cccc(CNc2ccccc2OC)c1O,-13.62
Cl.Fc1ccc(F)c(CN2CCC(c3cc4ncccc4cn3)CC2)c1,79.43
CC(NC(=O)c1cc(-c2cccc(Cl)c2)no1)C(=O)N1CCCC1 (centres undefined),4.704 & 8.204
Cc1cc(N(C)Cc2ccsc2)n2nc(C)c(C)c2n1,77.45 & 78.77
COc1cccc(-c2nc(CNC(C)Cn3cccn3)cs2)c1 (centres undefined),-41.98
CCc1nc(Cn2nc(COC)oc2=O)cs1,50.48
Cc1nc(CNC(=O)CC2C(=O)NCCN2CCC(C)C)n[nH]1 (centres undefined),-15.8
Cc1nc(CCCC(=O)Nc2cccc(N3CCNC3=O)c2)cs1,-7.362 & 5.853
O=C1N(Cc2ccc(F)c(F)c2)CCCC12CCN(C1CCCC1)C2 (centres undefined),64.08 & 51.83
NC(=O)Nc1cccc(Oc2ccccn2)c1,-8.351 & 2.312
Cc1cc2c(cc1Cl)C=CC1(CCN(CC(=O)N3CCCC3)CC1)O2,7.614
COC(=O)C1CCN(C(=O)c2nnc3ccc(Cl)cc3n2)CC1,39.38
COC(=O)c1ncccc1N1CCC(C(O)c2ccccc2)CC1 (centres undefined),-31.43
Cc1ccc(CN(CCCN(C)C)Cc2cnc(C)n2C)o1.O=C(O)CC(O)(CC(=O)O)C(=O)O,20.7
CO[C@@H]1CCN(C(=O)c2cc(C)on2)C[C@@H]1Cc1ccccc1,24.91
Cc1ncsc1C(=O)N(C)Cc1ccc(Br)o1,-30.02
Cc1nc2c(c(NCc3cc4ccccc4s3)n1)CCNCC2,62.52
[H][C@]12CCN(C(=O)C3CCCO3)CC[C@@]1([H])S(=O)(=O)N(CC(=O)N(C)C)C2 (some centres undefined),-18.5 & -3.578
Cc1nnc(CN(Cc2ccccc2C(F)(F)F)C2CC2)o1,22.6 & 10.5
CN(C)CCN(C)c1ccc(-c2nc(COc3ccccc3)no2)cn1,41.9
Cc1ncc(CN2CCCC(O)(c3ccc(F)cc3)CC2)n1C.O=C(O)CC(O)(CC(=O)O)C(=O)O (centres undefined),14.75
Cc1ncccc1Oc1cncc(C2CCCN2Cc2cncn2C)n1 (centres undefined),3.589
CS(=O)(=O)N1CCN(c2cc(N3CCCC3CO)ncn2)CC1 (centres undefined),10.09
Cc1cc(C)nc(NC2CCCN(CCCc3ccccc3)C2)n1 (centres undefined),-33.12
Cc1cccc2c1OCCCC2NCc1nccn1Cc1ccccc1 (centres undefined),51.91
CC(C)c1nnc(CN(C)Cc2ccccc2-c2ccccc2)o1,47.52 & 57.22
CC(=O)c1ccc(NC(=O)C(C)Cn2cc(Br)cn2)cc1 (centres undefined),-1.337 & 4.075
COc1cccc(Cn2[nH]c(C)c3c(NC(=O)C(C)OC)nnc2-3)c1 (centres undefined),-8.847 & 0.9445
CC(CCNC(=O)NCCc1ccncc1)c1ccccc1 (centres undefined),1.093 & 18.26
O=C(CCN1CCCC(CO)(CC2CC2)C1)NCc1cccc(Cl)c1 (centres undefined),83.71 & 1.134
CC(C)COC(C)C(=O)NCc1ccc(OC(C)C)nc1 (centres undefined),15.47
O=C(CCC1CCCN(C(=O)CCc2ccc(F)c(F)c2)C1)NC1CC1 (centres undefined),-16.33
CC(C)(NS(C)(=O)=O)C(=O)NCCc1csc2ccccc12,35.56
CCOc1nn(CC)cc1-c1nnc(SCC)n1C,-3.258 & -13.16
CC(=O)N1CCc2ccc(S(=O)(=O)N3CCCCC3C)cc21 (centres undefined),4.29
COc1ncccc1CNC(=O)c1cnccn1,-16.76
c1cncc(-c2nc3c(c(NCC4(c5ccncc5)CC4)n2)CCC3)c1,28.54
[H][C@]12CCN(C(=O)c3ccccc3C)C[C@@]1([H])OCCN(c1ncccn1)C2,89.31
Cc1cc(C(=O)N2CCN(c3nc4c(C(C)C)cccc4s3)CC2)no1,48.31
Cc1cnc(N2C(=O)CSC2c2ccccc2)s1 (centres undefined),8.805 & 26.29
O=C(Cn1cnnn1)NCC1(O)CCCc2ccccc21 (centres undefined),-37.89
CCN(C(=O)CN1CCCC1c1ccc(OC)cc1)c1ccccc1C (centres undefined),48.62
O=C(NCc1ccc(C(=O)O)o1)c1ccc(F)cc1,18.86
O=C1CCc2cc(-c3csc(CCN4CCOC4=O)n3)ccc2N1,12
Cc1n[nH]cc1CNCC(c1ccsc1)N(C)C (centres undefined),-3.445 & 53.05
[H][C@]12CCN(C(=O)C3CCCO3)CC[C@@]1([H])S(=O)(=O)N(CC)C2 (some centres undefined),5.837 & 1.565
Cc1ccc(CN(CCCn2ccnc2)Cc2c[nH]cn2)s1.O=C(O)CC(O)(CC(=O)O)C(=O)O,21.79
O=C(C1CC2(CCNCC2)CN1)N1CCN(c2ccccc2)CC1 (centres undefined),-18.11
O=S(=O)(c1ccccc1Cl)N1CCc2nc(C3CCNCC3)ncc2C1,38.67
CCc1ccc(C(=O)N2CCN(Cc3ccc(F)cc3)CC2)s1,69.34
Cn1cc(N2CC3(CCN(Cc4nccn4C)C3)CC2=O)cn1.O=C(O)C(F)(F)F (centres undefined),-13.54
Cc1cc2nc(C(C)C)cc(NCCc3ccncc3)n2n1,11.74
O=C(NCCn1cccc1)c1c(O)cc(F)cc1F,8.327
Cl.O=S(=O)(c1ccc(Cl)cc1)N1CCc2nc(C3CCNCC3)ncc2C1,53.63
Cc1ccc(CNC(=O)NCc2ccco2)s1,30.82
COc1cccc(-c2noc(-c3ccc(NCC(C)C)nc3)n2)c1OC,7.029
COc1ccc(C(=O)Nc2c(C)nn(C(C)C)c2C)cc1,-30.75
O=C(NCCCN1CCCCC1)c1ccc(-n2ccc3ccccc32)s1,80.06
CC1CCCCN1C(=O)COCc1nc(-c2ccncc2)no1 (centres undefined),124.3
COc1ccc(-c2cc(CN)ccc2F)c(OC)c1OC,-33.33 & 11.48
Cc1noc(C(C)C)c1C(=O)NCc1ccc2c(c1)OCCO2,2.519
CN(CC(N)=O)C(=O)C1Cc2cc(Cl)ccc2O1 (centres undefined),-1.128 & -39.79
O=C(NCc1ccco1)N1CCN(Cc2ccc3c(c2)CCO3)CC1,82
Cc1cc(C(=O)N2CCC(Nc3cccnc3)CC2)c(C)s1,-16.86
COc1cc(Cl)c(NCc2c(C)noc2C)cc1OC,-35.74
CC(=O)c1c(C)nn(CC(=O)Nc2ccc(F)cc2)c1C,-2.261 & -45.92
CN(C(=O)c1ccc(S(=O)(=O)NC(C)(C)C)cc1)C1(C#N)CCC1,8.988
N#Cc1cccnc1OC1CCN(C(=O)c2cc(C3CC3)on2)CC1,18.75 & 21.9
c1cc(-c2n[nH]c(CNc3nnc(C4CC4)o3)n2)ccn1,8.21
c1cncc(-c2ccc3c(c2)CCC32CCNCC2)c1,25.51 & 53.06
CCC(C)CS(=O)(=O)NCCc1csc(N2CCCC2)n1 (centres undefined),4.245
CO[C@H]1CCN(C(=O)c2cc(C)on2)C[C@@H]1Cc1ccccc1,9.553
CO[C@@H]1CCN(c2ncccn2)[C@H]1Cc1ccccc1,-2.297 & 4.418
COc1cc(OC)cc(N2CCC(NC(=O)c3cccn3C)CC2)c1,12.18
N#Cc1cccc(N2CCCC(CO)(Cc3ccccc3F)C2)n1 (centres undefined),28.72
COc1ccccc1C(O)CNc1nccc(-c2ccc(C)nc2C)n1 (centres undefined),11.09 & 13.96
CS(=O)(=O)NCC1CCCN(c2ccc(C(F)(F)F)cn2)C1 (centres undefined),22.77
Cc1cc(SCC(N)=O)nc(-c2ccc(F)cc2)n1,7.479 & -1.321
CC(C)C(Sc1nnnn1C1CC1)C(=O)NCc1ccccc1 (centres undefined),10.92
COCCO[C@H]1COCCN(Cc2ccc(OC)cc2)C1,11.05 & -1.201
Cc1nc(COc2cccc(C#N)c2)no1,15.41
CNS(=O)(=O)CC(=O)N(Cc1c(F)cccc1Cl)C1CC1,16.26
NCC(c1ccccc1)N1CCc2sccc2C1 (centres undefined),16.57 & 17.5
O=C(NCC(CO)Cc1ccc(Cl)cc1)c1ccncc1Cl (centres undefined),72.88 & 5.181
Cc1cccc(NC2CCN(C(=O)Nc3ccc(F)c(F)c3)CC2)n1,24.36 & 53.54
CCNC(=O)NCCc1csc(N2CCCC2)n1,-12.44